Experimental data reported in publication PMC7730182 (International Journal of Molecular Sciences, 2020).

Assay: general procedure: Fmoc solid-phase peptide synthesis; Rink amide MBHA resin; HBTU / N-methylmorpholine
Settings: whole synthesis, molar % yield, scale of the general procedure 0.1 mmol

Row | Sequence | isolated yield [%]
1 | RPPWRPPW | 39
2 | RPRRPRLPW | 45

End groups of sequences in plain letters are not given here.
